Assay results as given in publication PMC10384427, “Human Post-Translational SUMOylation Modification of SARS-CoV-2 Nucleocapsid Protein Enhances Its Interaction Affinity with Itself and Plays a Critical Role in Its Nuclear Translocation” (2023).

Legend:
[1] = system: SARS-CoV-2 Nucleocapsid (N) protein, wildtype, SUMO1 modified, SARS-CoV-2 | human, P0DTC9;P63165; assay: FRET or BRET
[2] = system: SARS-CoV-2 N protein K347R, not SUMOylated, SARS-CoV-2, P0DTC9 1-419; assay: FRET or BRET

Row | Substance | Kd [1] [nM] | Kd [2] [nM]
1 | SARS-CoV-2 Nucleocapsid (N) protein, wildtype, SUMO1 modified | 340 | 
2 | SARS-CoV-2 N protein K347R, not SUMOylated |  | 1980
